Experimental data: PubChem BioAssay AID624099 (ICCB-Longwood, 2012)

Aim: 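Human genes that papillomavirus E2 requires to repress the HPV18 LCR promoter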 (primary screen)
Cell system: human C33A cervical carcinoma cells (HPV-negative) stably expressing BPV1 E2 and an HPV18 LCR luciferase reporter
Knock-down reagent: siRNA pool against human genes, 40 nM
Time to read-out: 72 h
Measured: 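HPV18 LCR reporter light per well, converted to plate-wise z-scores that exclude control wells, and averaged over triplicate plates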
Direction: mean z-score and z-score: higher = stronger reporter signal, weaker E2 silencing
Call rule: 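Mean z ≥ 2 together with z ≥ 2 in two or more of the three replicates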
The whole screen tested about 21,000 reagents; below is a part drawn at random. 497 of all reagents (2.4%) count as active. 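Higher z means weaker E2 silencing; only reporter increases were scored, and knock-downs that hurt cell survival may mask genuine repressor factors.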 Reagents against one gene are numbered here. No sequences are given here.

target	pool no.	mean z-score	z-score, replicate A	z-score, replicate B	z-score, replicate C	Outcome
DEFB105A (GeneID 245908)	1	1.07	1.24	1	0.97	inactive
UMODL1-AS1 (GeneID 150147)	1	4.41	4.1	5.07	4.05	active
CKMT1B (GeneID 1159)	1	-0.88	-0.68	-0.84	-1.12	inactive
LOC387783 (retired record) (GeneID 387783)	1	-0.08	-0.17	-0.16	0.08	inactive
ZNF821 (GeneID 55565)	1	1.27	1.6	1.26	0.95	inactive
LINC00997 (GeneID 401321)	1	-0.97	-0.71	-1.17	-1.02	inactive
LINC00997 (GeneID 401321)	2	-0.76	-0.83	-0.45	-1.02	inactive
DRC4 (GeneID 2622)	1	1.73	1.72	1.78	1.68	inactive
STAG3 (GeneID 10734)	1	-1.01	-0.32	-1.2	-1.52	inactive
RFX5 (GeneID 5993)	1	-1.26	-1.33	-1.25	-1.18	inactive
TMEM216 (GeneID 51259)	1	-0.15	0.21	-0.48	-0.18	inactive
FASN (GeneID 2194)	1	0.78	0.58	0.69	1.06	inactive
MITD1 (GeneID 129531)	1	-0.84	-0.89	-0.87	-0.76	inactive
TMEM115 (GeneID 11070)	1	-0.88	-0.88	-1.08	-0.67	inactive
LINC00479 (GeneID 150135)	1	1.07	1.49	0.65	1.06	inactive
TNFSF4 (GeneID 7292)	1	-0.12	0	-0.31	-0.06	inactive
HTR2A (GeneID 3356)	1	0.12	0.5	0	-0.15	inactive
FAM209B (GeneID 388799)	1	-1.35	-1.4	-1.13	-1.53	inactive
LOC390846 (GeneID 390846)	1	0.31	0.44	-0.04	0.51	inactive
PPDPF (GeneID 79144)	1	1.75	2.16	1.46	1.63	inactive
UHRF2 (GeneID 115426)	1	0.49	0.49	0.37	0.62	inactive
ALOX15 (GeneID 246)	1	-0.42	-0.58	-0.5	-0.17	inactive
DCTN6 (GeneID 10671)	1	0.12	0.04	0.21	0.1	inactive
CIITA (GeneID 4261)	1	0.13	0	0.37	0.02	inactive
H2BP3 (GeneID 391566)	1	2	1.49	2.34	2.18	active
MRPS6 (GeneID 64968)	1	0.43	0.51	0.54	0.22	inactive
RGL2 (GeneID 5863)	1	2.39	2.3	2.48	2.38	active
FUS (GeneID 2521)	1	1.46	1.6	1.39	1.39	inactive
SLC22A15 (GeneID 55356)	1	0.37	0.79	0.53	-0.2	inactive
ZNF438 (GeneID 220929)	1	-0.24	-0.11	-0.55	-0.07	inactive
CHFR (GeneID 55743)	1	-0.1	-0.02	-0.3	0.01	inactive
ONECUT2 (GeneID 9480)	1	-0.43	-0.48	-0.29	-0.51	inactive
RPL23P8 (GeneID 222901)	1	0.24	0.44	0.36	-0.08	inactive
FUBP3 (GeneID 8939)	1	0.68	0.71	0.49	0.85	inactive
GAS2L1P2 (GeneID 340508)	1	0.94	1.16	0.72	0.93	inactive
LOC285101 (retired record) (GeneID 285101)	1	-0.13	-0.11	-0.11	-0.19	inactive
CIROZ (GeneID 148345)	1	0.25	0.48	-0.09	0.37	inactive
ZNF276 (GeneID 92822)	1	1.01	1.36	1.19	0.48	inactive
DKFZp547B139 (retired record) (GeneID 400930)	1	-0.11	-0.29	0.1	-0.14	inactive
LINC01588 (GeneID 283551)	1	-1.14	-0.89	-1.3	-1.22	inactive
CD79B (GeneID 974)	1	-0.04	0.1	-0.19	-0.03	inactive
LPAL2 (GeneID 80350)	1	-0.47	-0.25	-0.61	-0.54	inactive
TAAR1 (GeneID 134864)	1	1.06	0.95	1.02	1.2	inactive
MTHFS (GeneID 10588)	1	-1.24	-1.32	-1.19	-1.21	inactive
TMEM41B (GeneID 440026)	1	0.79	0.79	0.65	0.92	inactive
SEC31A (GeneID 22872)	1	-1.33	-1.41	-1.52	-1.07	inactive
SLC6A5 (GeneID 9152)	1	0.85	1.35	0.31	0.88	inactive
SEPTIN10 (GeneID 151011)	1	0.43	0.22	0.33	0.73	inactive
LOC389192 (retired record) (GeneID 389192)	1	0.01	-0.31	0.01	0.33	inactive
CNBD2 (GeneID 140894)	1	-0.94	-1.01	-1.52	-0.28	inactive
NCAPH2 (GeneID 29781)	1	1.71	1.8	1.76	1.56	inactive
GZF1 (GeneID 64412)	1	-0.04	-0.34	-0.19	0.42	inactive
MEGF10 (GeneID 84466)	1	0.01	0.03	0.08	-0.09	inactive
RRAGB (GeneID 10325)	1	-0.24	-0.09	-0.38	-0.25	inactive
COBL (GeneID 23242)	1	-0.22	0.05	-0.29	-0.41	inactive
TMEM240 (GeneID 339453)	1	0.94	0.86	1.21	0.76	inactive
MACO1 (GeneID 55219)	1	1.27	1.05	1.41	1.34	inactive

Entries listed so far marked active, once more:
target	pool no.	mean z-score	z-score, replicate A	z-score, replicate B	z-score, replicate C	Outcome
UMODL1-AS1 (GeneID 150147)	1	4.41	4.1	5.07	4.05	active
H2BP3 (GeneID 391566)	1	2	1.49	2.34	2.18	active
RGL2 (GeneID 5863)	1	2.39	2.3	2.48	2.38	active
